Anti-infective test results gathered from many reports (values: NIAID ChemDB through PubChem).

Common to all: whole-cell or culture tests; species: HIV-1; method: cytopathic effect / MTT; endpoint: EC50

Two numbers with a dash give a range or band. An empty or dashed field is not shown. ECn is the concentration giving n% inhibition of infection, replication or growth. Neighbouring rows are from separate reports.

compound,cells,strain or isolate,changes,conditions,value
COc1cccc(-c2cc(C(C)=O)c(C)n2-c2cccc(N)c2)c1,MT-4,-,-,-,>10.2 µM
CCn1cc(C(=O)O)c(=O)c2cc(F)c(N3CCN(c4ccccc4OC)CC3)c(OC(F)F)c21,C8166,B12,-,-,0.2 µM
CCC(C)[C@@H](C(=O)N[C@@H](Cc1ccccc1)[C@H](O)CN(CC(C)C)S(=O)(=O)c1ccc(/C=N/O)cc1)N1CC(=O)N(Cc2cccnc2)C1=O,MT-4,-,-,50% human serum,0.016 µM
CCCCCCC(C)[C@H]1CCC2C3CC[C@H]4C[C@@H](CCC=C(c5cc(Cl)c(O)c(C(=O)O)c5)c5cc(Cl)c(O)c(C(=O)O)c5)CC[C@]4(C)C3CC[C@@]21C,CEM + CEM-SS,RF,-,-,5.1 µM
Cc1cn([C@H]2C=C[C@@H](CO)O2)c(=O)[nH]c1=O,MT-4,HXB2-RT-T215 Recombinant,-,-,0.52 µM
N#Cc1cc2[nH]c3ccccc3c2n(-c2ccc([N+](=O)[O-])cc2)c1=O,MT-4,D,RT-L100I K103N,-,1 µM
CCOC(=O)c1cc(-c2cccc([N+](=O)[O-])c2)n(-c2cccc(OC)c2)c1C,MT-4,-,-,-,>33 µM
C=C(C)[C@@H]1CC[C@]2(C(=O)NCCCCCCCC(=O)N[C@@H](CC(C)C)[C@@H](O)CC(=O)O)CC[C@]3(C)[C@H](CC[C@@H]4[C@@]5(C)CC[C@H](O)C(C)(C)[C@@H]5CC[C@]43C)[C@@H]12,MT-4,NDK,-,-,>5 µM
CNc1nc(-c2ccc(S(=O)(=O)N(CC(C)C)C[C@@H](O)[C@H](Cc3ccccc3)NC(=O)COc3c(C)cccc3C)cc2)cs1,MT-4,LAI,-,-,1.259 µM
COc1c(Cl)cc(C(=CCCCCN(C(=O)C=C(c2cc(Cl)c(OC)c(C(=O)O)c2)c2cc(Cl)c(OC)c(C(=O)O)c2)[C@H]2CC[C@]3(C)C4CC[C@@]5(C)C(CC[C@@H]5C(C)CCCC(C)C)C4CC[C@H]3C2)c2cc(Cl)c(OC)c(C(=O)O)c2)cc1C(=O)O,CEM + CEM-SS,RF,-,-,6.9 µM
CCOCn1c(Cc2cccc(OCC=O)c2)c(CC)c(=O)[nH]c1=O,MT-4,RT-Y181C Mutant NNRTI-resistant,-,-,15 µM
Cc1cc(Br)cc(C)c1OCC(=O)N[C@@H](Cc1ccccc1)[C@H](O)CN(CC(C)C)S(=O)(=O)c1ccc(-c2csc(Nc3ccncc3)n2)cc1,MT-4,LAI,-,-,20 µM
Cc1ccc(O)c(O)c1,MT-4,IIIB,-,-,58 µg/mL
CC(=O)OCC1=C[C@@H]2C(=O)[C@]3(C=C(C)[C@H](OC(C)=O)[C@@]3(O)[C@@H]1OC(C)=O)[C@H](C)C[C@@H]1[C@H]2C1(C)C,MT-4,HE,Nevirapine resistant,-,0.13 µM
CCn1nccc1-c1ccc(S(=O)(=O)N(CC(C)C)C[C@@H](O)[C@H](Cc2ccccc2)NC(=O)COc2c(C)cccc2C)cc1,MT-4,LAI,-,-,6.31 µM
C=CCOc1cccc(Cc2[nH]c(=O)c(CC)c(O)c2CC)c1,MT-4,RT-K103N Y181C Mutant NNRTI-resistant,-,-,>20 µM
O=CC(OC(=O)c1cc(Oc2cc3c(c(O)c2O)Oc2cc(cc(O)c2O)C(=O)OC2OC4COC(=O)c5cc(O)c(O)c(O)c5-c5c(cc(O)c(O)c5O)C(=O)OC4C(OC(=O)c4cc(O)c(O)c(O)c4)C2OC3=O)c(O)c(O)c1O)C(OC(=O)c1cc(O)c(O)c(O)c1)C1OC(=O)c2cc(O)c(O)c(O)c2-c2c(cc(O)c(O)c2O)C(=O)OCC1O,MT-4,IIIB,-,-,21.7 µg/mL
C=CCOc1cccc(Cc2nc(N(C)C)[nH]c(=O)c2CC)c1,MT-4,RT-Y181C Mutant NNRTI-resistant,-,-,>20 µM
CCCc1nc(-c2ccc(N3C(=O)C=CC4C3c3ccccc3N4C)cc2)no1,MT-4,LAI,-,-,1–32 µM
CCC(C)[C@@H](C(=O)N[C@@H](Cc1ccccc1)[C@H](O)CN(CC(C)C)S(=O)(=O)c1ccc(/C=N/O)cc1)N1CC(=O)N(Cc2ccncc2)C1=O,MT-4,A17 (LPV-resistant),PR-L10F V32I M46I I47V Q68E I84V,-,0.001 µM
C=CCOc1cccc(Cc2nc(SCC(C)C)nc(OCC(C)C)c2CC)c1,MT-4,RT-Y181C Mutant NNRTI-resistant,-,-,>100 µM
Nc1nc2c(ncn2[C@@H]2C[C@H](O)[C@H](CO)O2)c(=O)[nH]1,MT-4,-,-,-,>100 µM
O=C(OC1OC2COC(=O)c3cc(O)c(O)c(O)c3-c3c(cc(O)c(O)c3O)C(=O)OC2C(OC(=O)c2cc(O)c(O)c(O)c2)C1O)c1cc(O)c(O)c(O)c1,MT-4,IIIB,-,-,>25 µg/mL
C=CCCc1cccc(Cc2c(CC)c(=O)[nH]c(=O)n2COCC)c1,MT-4,RT-K103N Y181C Mutant NNRTI-resistant,-,-,10 µM
CCC(C)[C@@H](C(=O)N[C@@H](Cc1ccccc1)[C@H](O)CN(CC(C)C)S(=O)(=O)c1ccc(/C=N/O)cc1)N1CCN(Cc2ccc(OC)nc2)C1=O,MT-4,A17 (LPV-resistant),PR-L10F V32I M46I I47V Q68E I84V,-,0.01 µM
CCc1c(Cc2cccc(Cc3[nH]c(=O)[nH]c(=O)c3CC)c2)[nH]c(=O)[nH]c1=O,MT-4,RT-K103N+Y181C NNRTI-resistant,RT-K103N Y181C,-,>100 µM
O=C1O[C@H]2[C@@H](OC(=O)c3cc(O)c(O)c(O)c3)[C@H](OC(=O)c3cc(O)c(O)c4c3C3C1=CC(=O)C(O)(O4)C3(O)O)[C@@H]1OC(=O)c3cc(O)c(O)c(O)c3-c3c(cc(O)c(O)c3O)C(O)OC[C@H]2O1,MT-4,IIIB,-,-,>25 µg/mL
O=C(O)Cc1cc(O)ccc1O,MT-4,IIIB,-,-,6 µg/mL
Cn1c2ccccc2c2c1cc(C#N)c(=O)n2-c1ccc([N+](=O)[O-])cc1,MT-4,A,RT-Y181C,-,0.1 µM
O=C(O)/C=C/c1ccc(O)c(O)c1,MT-4,IIIB,-,-,5 µg/mL
CCc1c(Cc2cccc(Cc3nc(SC(C)CC)[nH]c(=O)c3CC)c2)nc(SC(C)CC)[nH]c1=O,MT-4,NNRTI-resistant,RT-Y181C,-,>27 µM
O=C(O)Cc1ccc(O)c(O)c1,MT-4,IIIB,-,-,8 µg/mL
COc1c(Cl)cc(C(=CCCCCN[C@@H]2CC[C@]3(C)C4CC[C@@]5(C)C(CC[C@@H]5C(C)CCCC(C)C)C4CC[C@H]3C2)c2cc(Cl)c(OC)c(C(=O)O)c2)cc1C(=O)O,MT-4,IIIB,-,-,>150 µM
CCC(C)[C@@H](C(=O)N[C@@H](Cc1ccccc1)[C@H](O)CN(CC(C)C)S(=O)(=O)c1ccc(/C=N/O)cc1)N1CCN(Cc2cccnc2)C1=O,MT-4,A17 (LPV-resistant),PR-L10F V32I M46I I47V Q68E I84V,-,0.008 µM
Cc1cccc(C)c1OCC(=O)N[C@@H](Cc1ccccc1)[C@H](O)CN(CC(C)C)S(=O)(=O)c1ccc(-c2ccnn2C)cc1,MT-4,LAI,-,-,1.259 µM
COc1c(Cl)cc(C(=CCCNC(=O)C[C@H]2CC[C@]3(C)C4CC[C@@]5(C)C(CC[C@@H]5CC(=O)NCCC=C(c5cc(Cl)c(OC)c(C(=O)O)c5)c5cc(Cl)c(OC)c(C(=O)O)c5)C4CC[C@H]3C2)c2cc(Cl)c(OC)c(C(=O)O)c2)cc1C(=O)O,CEM + CEM-SS,IIIB,-,-,47 µM
C=CCOc1cccc(Cc2[nH]c(=S)[nH]c(=O)c2CC)c1,MT-4,RT-K103N Y181C Mutant NNRTI-resistant,-,-,>20 µM
O=C(OC1OC2COC(=O)c3cc(O)c(O)c(O)c3-c3c(cc(O)c(O)c3O)C(=O)OC2C(OC(=O)c2cc(O)c(O)c(O)c2)C1OC(=O)c1cc(O)c(O)c(O)c1)c1cc(O)c(O)c(Oc2c(C(=O)OC3OC4COC(=O)c5cc(O)c(O)c(O)c5-c5c(cc(O)c(O)c5O)C(=O)OC4C4OC(=O)c5cc(O)c(O)c(O)c5-c5c(cc(O)c(O)c5O)C(=O)OC34)cc(O)c(O)c2O)c1,MT-4,IIIB,-,-,7.7 µg/mL
Cc1cccc(C)c1OCC(=O)N[C@@H](Cc1ccccc1)[C@H](O)CN(CC(C)C)S(=O)(=O)c1ccc(-c2csc(Nc3ccncc3)n2)cc1,MT-4,LAI,-,-,3.981 µM
COc1cccc2c1c1ccc(N)cc1n1c(C)c(C(C)=O)cc21,MT-4,-,-,-,>18 µM
Cc1cccc(C)c1OCC(=O)N[C@@H](Cc1ccccc1)[C@H](O)CN(CC(C)C)S(=O)(=O)c1ccc(-c2ccn[nH]2)cc1,MT-4,LAI,-,-,0.079 µM
CCc1c(Cc2cccc(Cc3nc(SC)n(C)c(=O)c3CC)c2)nc(SC)nc1OC,MT-4,NNRTI-resistant,RT-Y181C,-,>80 µM
CC(=O)c1cc(-c2ccccc2)n(-c2cccc(N)c2)c1C,MT-4,-,-,-,>22 µM
CCC(C)[C@@H](C(=O)N[C@@H](Cc1ccccc1)[C@H](O)CN(CC(C)C)S(=O)(=O)c1ccc(/C=N/O)cc1)N1CCN(Cc2ccccn2)C1=O,MT-4,-,-,-,0.005 µM
O=CC(OC(=O)c1cc(O)c(O)c(O)c1)C(OC(=O)c1cc(O)c(O)c(O)c1)C1OC(=O)c2cc(Oc3c(C(=O)OC4OC5COC(=O)c6cc(O)c(O)c(O)c6-c6c(cc(O)c(O)c6O)C(=O)OC5C(OC(=O)c5cc(O)c(O)c(O)c5)C4OC(=O)c4cc(O)c(O)c(O)c4)cc(O)c(O)c3O)c(O)c(O)c2-c2c(cc(O)c(O)c2O)C(=O)OCC1O,MT-4,IIIB,-,-,>50 µg/mL
CCc1c(Cc2cccc(Cc3nc(SC(C)C)[nH]c(=O)c3CC)c2)nc(SC(C)C)nc1OC(C)C,MT-4,NNRTI-resistant,RT-Y181C,-,>43 µM
CN(C)c1nc(-c2ccc(N3C(=O)C=CC4C3c3ccccc3N4C)cc2)no1,MT-4,LAI,-,-,>32 µM

The last 7 rows once more:

compound | cells | strain or isolate | changes | conditions | value
Cc1cccc(C)c1OCC(=O)N[C@@H](Cc1ccccc1)[C@H](O)CN(CC(C)C)S(=O)(=O)c1ccc(-c2ccn[nH]2)cc1 | MT-4 | LAI | - | - | 0.079 µM
CCc1c(Cc2cccc(Cc3nc(SC)n(C)c(=O)c3CC)c2)nc(SC)nc1OC | MT-4 | NNRTI-resistant | RT-Y181C | - | >80 µM
CC(=O)c1cc(-c2ccccc2)n(-c2cccc(N)c2)c1C | MT-4 | - | - | - | >22 µM
CCC(C)[C@@H](C(=O)N[C@@H](Cc1ccccc1)[C@H](O)CN(CC(C)C)S(=O)(=O)c1ccc(/C=N/O)cc1)N1CCN(Cc2ccccn2)C1=O | MT-4 | - | - | - | 0.005 µM
O=CC(OC(=O)c1cc(O)c(O)c(O)c1)C(OC(=O)c1cc(O)c(O)c(O)c1)C1OC(=O)c2cc(Oc3c(C(=O)OC4OC5COC(=O)c6cc(O)c(O)c(O)c6-c6c(cc(O)c(O)c6O)C(=O)OC5C(OC(=O)c5cc(O)c(O)c(O)c5)C4OC(=O)c4cc(O)c(O)c(O)c4)cc(O)c(O)c3O)c(O)c(O)c2-c2c(cc(O)c(O)c2O)C(=O)OCC1O | MT-4 | IIIB | - | - | >50 µg/mL
CCc1c(Cc2cccc(Cc3nc(SC(C)C)[nH]c(=O)c3CC)c2)nc(SC(C)C)nc1OC(C)C | MT-4 | NNRTI-resistant | RT-Y181C | - | >43 µM
CN(C)c1nc(-c2ccc(N3C(=O)C=CC4C3c3ccccc3N4C)cc2)no1 | MT-4 | LAI | - | - | >32 µM